Record: PubChem BioAssay AID504761 (Drosophila RNAi Screening Center, 2011)
In all, the deposit lists about 22,000 reagents; below is an unselected part of those that have a named target and a result. In the full data, 116 (0.52%) got an active call. 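Calls depend on retest data that are not deposited; infection was ranked per plate without normalising between plates; the unit of the infection score is not given.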 The raw values are shown without normalisation. The numbers tell different reagents against one gene apart. Names joined by + are all predicted targets of the reagent. Reagent sequences are not shown. Not given: the amount of reagent, the time to read-out.

Test: 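Fly genes whose silencing reduces dengue virus type 2 infection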 (primary screen)
Cell system: D.Mel-2 cells from Drosophila
Knock-down reagent: long dsRNA against Drosophila genes
Conditions: infection with dengue virus type 2; dose and infection time not stated
Measured: 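Cells stained for dengue envelope protein and imaged; percent of infected cells per well on duplicate plates, ranked by infection, with stained nuclei counted for cell number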
Direction: infection score: higher = more virus-infected cells; cell count: higher = more cells in the well
Call rule: 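Very low infection ranking in both replicate wells (chance probability at most 0.065), then a retest showing infection dropped 1.5-fold or more at p below 0.05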
Calls: active = confirmed: knock-down lowers infection; inactive = not picked or not confirmed

predicted target	dsRNA no.	infection score, replicate 1	infection score, replicate 2	cell count, replicate 1	cell count, replicate 2	Outcome
S-Lap2	1	1.97	3.94	6660	6449	inactive
pnut	1	4.43	7.97	5824	6423	inactive
pnut	2	2.09	3.5	6320	6198	inactive
CHKov1	1	6.05	3.27	6147	6335	inactive
CHKov1	2	4.05	3.41	5848	5860	inactive
CHKov1	3	11.6	12.4	5462	6653	inactive
CHKov1	4	4.11	12.7	6683	5252	inactive
CHKov1	5	3.71	9.68	6284	5941	inactive
CG13795	1	6.21	1.99	5864	6470	inactive
l(3)62Be (retired record)	1	11.6	16.6	4811	3704	inactive
CG34425	1	8.54	2.67	6063	6290	inactive
CG34425	2	2.58	3.13	6249	6323	inactive
amrt	1	2.3	3.31	6488	6646	inactive
amrt	2	3.65	9.06	6248	6578	inactive
ewg	1	0.61	4.31	6706	6826	inactive
ewg	2	9.62	6.06	6175	6037	inactive
CG2577	1	8.19	2.81	5357	5056	inactive
CG2577	2	3.61	8.55	6037	6618	inactive
CG2577	3	7.61	1.49	6501	5851	inactive
Chro	1	3.02	3.28	5029	6099	inactive
CG15701	1	17.8	12.8	5199	6255	inactive
btv	1	0.81	0.5	6151	5839	inactive
btv	2	0.14	0.94	717	6922	inactive
CYLD	1	3.14	8.82	1943	4535	inactive
CG11180	1	8.73	16.1	5705	5350	inactive
CG11180	2	14.2	16.6	6146	5576	inactive
sog	1	5.03	8.62	6069	5977	inactive
CG18547	1	1.3	4.9	6473	6893	inactive
CG12112	1	14	1.14	5836	6423	inactive
Cyp12a5	1	1.24	1.41	6630	6589	inactive
Cyp12a5	2	7.88	0.68	5963	6212	inactive
CG7342	1	6.51	1.66	6769	6680	inactive
Nup93-2	1	14.8	15.8	5513	4670	inactive
vnc + CG42455	1	6.92	3.37	4552	4683	inactive

The list goes on (6 carried over from the part before).
predicted target	dsRNA no.	infection score, replicate 1	infection score, replicate 2	cell count, replicate 1	cell count, replicate 2	Outcome
CG12112	1	14	1.14	5836	6423	inactive
Cyp12a5	1	1.24	1.41	6630	6589	inactive
Cyp12a5	2	7.88	0.68	5963	6212	inactive
CG7342	1	6.51	1.66	6769	6680	inactive
Nup93-2	1	14.8	15.8	5513	4670	inactive
vnc + CG42455	1	6.92	3.37	4552	4683	inactive
rush	1	3.47	5.1	5794	5985	inactive
CG14034	1	3.03	5.97	6311	6748	inactive
Ulp1	1	2.84	5.35	6330	6820	inactive
CG31848	1	8.56	3.07	5888	6249	inactive
CG4942	1	9.54	0.93	901	428	inactive
MsR1	1	2.33	1.21	6233	6421	inactive
MsR1	2	2.57	2.21	6276	6207	inactive
CG14221	1	4.2		6531		inactive
Ufm1 + mute	1	11.7	1.73	5804	4925	inactive
ND-13B	1	3.39	5.66	5391	5905	inactive
ND-13B	2	14.6	4.04	6245	6416	inactive
Trs23	1	2.84	2.11	6016	6172	inactive
Trs23	2	11	5.72	5541	5714	inactive
CG11695	1	24.6	10.6	4492	5556	inactive
CG11695	2	10.8	6.82	6978	6542	inactive
CG10005	1	0.88	3.48	6575	6374	inactive
mthl8	1	11.3	12.2	6501	5999	inactive
mthl8	2	0.6	5.06	5524	6476	inactive
CG13038	1	3.62	11.8	5636	5765	inactive
tub	1	18.8	6.73	5500	6315	inactive
tub	2	4.15	1.59	5611	6592	inactive
CG10565	1	2.77	17.1	6527	6331	inactive
ATP6AP2	1	1.64	1.08	5596	6946	inactive
Orcokinin	1	16.8	27.2	5506	6070	inactive
